A mixed list of measured activities; the numbers were collected in NIAID ChemDB.

Shared fields: cytotoxicity tests; endpoint: CC50

CCn is the concentration with n% toxicity to the cells. Rows are shuffled and stem from different studies. An empty or dashed field is not shown.

compound | method | cells | result
CC[C@H](O)C1=C[C@@H](n2cnc3c(N)ncnc32)[C@H](O)[C@@H]1O | - | P4 | >68 µM
O=C1CN=C(c2ccccc2)c2ccccc2N1CCCC1CC(Br)=NO1 | resazurin / absorbance | J774.1 macrophage cell line | 22.5 µM
CC(C)CN(C[C@@H](O)[C@H](Cc1ccccc1)NC(=O)O[C@H]1CCOC1)S(=O)(=O)c1ccc(N)cc1 | MTT | HKBMM | >100 µM
O=Nc1c(O)[nH]c2ccccc12 | MTT / absorbance | RAW 264.7 | 42.62 µM
COc1cc2c3cc1Oc1c4c(cc5c1[C@H](Cc1ccc(cc1)Oc1cc(ccc1OCCNCc1ccccc1)C[C@H]3N(C)CC2)N(C)CC5)OCO4 | MTT | U1 | 0.77 µg/mL
Nc1ncnc2c1ncn2[C@@H]1O[C@H](CO)[C@@H](O)[C@@H]1O | MTT | HSB-2 | 3.2 µM
CC(C)C[C@@H]1NC(=O)[C@H](Cc2c[nH]c3ccccc23)NC(=O)[C@@H](CCCCN)NC(=O)[C@H](CO)NC(=O)[C@H](C(C)C)NC(=O)[C@@H](CC(C)C)NC1=O | MTT | Colorectal carcinoma | >30 µM
Nc1ncnc2c1ccn2[C@@H]1CC[C@@H](O)[C@H]1O | - | P4 | >42 µM
Nc1ncnc2c1ncn2C[C@H]1COP(=O)(O)CO1 | MTT | CBMC | 77 µM
COC(=O)N[C@H](C(=O)N[C@@H](Cc1ccccc1)[C@@H](O)CN(Cc1ccc(-c2ccccn2)cc1)NC(=O)[C@@H](NC(=O)OC)C(C)(C)C)C(C)(C)C | MTT | HKBMM | >100 µM
COC(=O)C(C)NOP(OC[C@H]1C/C1=C/n1cnc2c(N)[nH]c(=O)nc21)Oc1ccccc1 | - | H-1 | >100 µM
CC(C)C[C@@H]1NC(=O)[C@H](Cc2c[nH]c3ccccc23)NC(=O)[C@@H](CCCCN)NC(=O)CNC(=O)[C@H](C(C)C)NC(=O)[C@@H](CC(C)C)NC1=O | MTT | Lung carcinoma cells | >30 µM
O=C1CN=C(c2ccccc2)c2ccccc2N1CCCCC1CC(Br)=NO1 | resazurin / absorbance | J774.1 macrophage cell line | 12.2 µM
C[C@H]1[C@H](O)[C@@H](C)/C=C/C=C/C=C/C=C/C=C/C=C/C=C/[C@H](O[C@@H]2O[C@H](C)[C@@H](O)[C@H](N)[C@@H]2O)C[C@@H]2O[C@](O)(C[C@@H](O)C[C@@H](O)CC[C@H](O)[C@@H](O)C[C@@H](O)CC(=O)O[C@H]1C)C[C@H](O)[C@H]2C(=O)O | MTT / tetrazolium | Mouse neuroblastoma CCL131 | 15.62 µg/mL
C[C@@H](O)C1=C[C@@H](n2cnc3c(N)ncnc32)[C@H](O)[C@@H]1O | - | P4 | >36 µM
Cc1ccc(NC(=O)NC2CCCCCCC2)cc1Cl | MTT | CCL-81 | >400 µg/mL
COC(=S)P(=O)([O-])SC | - | BCBL-1 | >200 µM
C#CCCC[C@@H]1OC(=O)CNC(=O)[C@H](C(C)C)NC(=O)[C@@H]2CCCN2C(=O)[C@H]([C@@H](C)CC)OC(=O)[C@H](Cc2ccccc2)N(C)C(=O)[C@H](C(C)C)NC(=O)C1(C)C | MTT | HT-29 | 87 µM
C=C[C@@H](O)C1=C[C@@H](n2cnc3c(N)ncnc32)[C@H](O)[C@@H]1O | - | P4 | >69 µM
COc1cc2c3cc1Oc1c4c(cc5c1[C@H](Cc1ccc(cc1)Oc1cc(ccc1OCCC(=O)c1ncc[nH]1)C[C@H]3N(C)CC2)N(C)CC5)OCO4 | MTT | U1 | 1.1 µg/mL
O=C1CN=C(c2ccc[nH]2)c2cc(Cl)ccc2N1 | - | P4 | 3.36 µM
CSC(=O)P(=O)([O-])SC | - | BCBL-1 | >200 µM
Cc1cn([C@H]2C[C@H](N=[N+]=[N-])[C@@H](COP(=O)(OCCSC(=O)C(C)(C)C)OCCSC(=O)C(C)(C)C)O2)c(=O)[nH]c1=O | MTT | MOLT-4/8 | 21.8 µM
C[C@H]1[C@@H](CCCOP(=O)(O)Oc2ccccc2)O[C@@H]2OC3(C)CC[C@H]4[C@H](C)CC[C@@H]1[C@@]24OO3 | - | Human foreskin fibroblasts | 55.04 µM
CC(C)=CCCc1ccc2c(c1)C(=O)C(N1CCCC1)=CC2=O | MTT | Human fibroblast 2C4 | 324 µM
O=C([S-])P(=O)([O-])[O-] | - | BCBL-1 | >300 µM
CN(c1ccc2c(c1)S(=O)(=O)N/C(=c1\c(=O)c3cccn3n(Cc3ccc(F)cc3)c1=O)N2)S(C)(=O)=O | - | HCV Huh-7/C24 | >10 µM
Nc1nccc2c1ncn2[C@@H]1C=C(CO)[C@@H](O)[C@H]1O | - | P4 | 76 µM
OC[C@H]1NCC[C@@H](O)[C@@H]1O | - | Karpas 45 cells | >180 µg/mL
Nc1ncnc2c1ncn2[C@@H]1C[C@@H](O)[C@H](CO)O1 | - | MA-104 | >100 µM
C[C@H]1[C@H](O)[C@@H](C)/C=C/C=C/C=C/C=C/C=C/C=C/C=C/[C@H](O[C@@H]2O[C@H](C)[C@@H](O)[C@H](N)[C@@H]2O)C[C@@H]2O[C@](O)(C[C@@H](O)C[C@@H](O)CC[C@H](O)[C@@H](O)C[C@@H](O)CC(=O)O[C@H]1C)C[C@H](O)[C@H]2C(=O)O | MTT | MCF-7 | 4.96 µg/mL
OC[C@@H]1[C@@H](O)[C@@H](O)CN1Cc1ccccc1 | - | Karpas 45 cells | >100 µg/mL
CCOC(=O)C1CCN(C(=O)C(=O)Nc2ccc3c(c2)OCO3)CC1 | WST | PM1 | >200 µM
CO[C@H]1C[C@H](O[C@H]2CC[C@]3(C=O)[C@H]4CC[C@]5(C)[C@@H](C6=CC(=O)OC6)CC[C@]5(O)[C@H]4CC[C@]3(O)C2)O[C@H](C)[C@H]1O | MTT | GMK AH1 | >250 µM
CCCCN1C[C@H](O)[C@@H](O)[C@H](O)[C@H]1CO | - | Karpas 45 cells | >500 µg/mL
Nc1ncnc2c1ncn2CCOCP(=O)(O)O | - | HepG2 2.2.15 | >100 µM
COC(=O)[C@@H](CCN1[C@@H]2CC[C@@H]1CC(n1nnc3cccnc31)C2)c1ccccc1 | - | CHO | >10 µM
C[C@H]1OC(O[C@H]2[C@@H](O)C[C@H](O[C@@]3(C)[C@@H](O)C[C@H](O[C@H]4CC[C@@]5(C)[C@H](CC[C@@H]6[C@@H]5C[C@@H](O)[C@]5(C)[C@@H](C7=CC(=O)OC7)CC[C@]65O)C4)O[C@@H]3C)O[C@@H]2C)C[C@H](O)[C@@H]1O | MTT | GMK AH1 | >25 µM
CC(C)=CCc1c(O)cc2oc3ccc(O)cc3c(=O)c2c1O | XTT / absorbance | 1A2 | 51.23 µM
Nc1ncnc2c1ncn2[C@@H]1CC[C@@H](O)[C@H]1O | - | P4 | 55 µM
Nc1ccn([C@@H]2C[C@@H](O)[C@H](CO)O2)c(=O)n1 | - | MA-104 | >100 µM
CO[C@H]1/C=C/O[C@@]2(C)Oc3c(C)c(O)c4c(O)c(c(/C=N/N5CCN(C)CC5)c(O)c4c3C2=O)NC(=O)/C(C)=C\C=C\[C@H](C)[C@H](O)[C@@H](C)[C@@H](O)[C@@H](C)[C@H](OC(C)=O)[C@@H]1C | MTT | Lung carcinoma cells | >30 µM
COC(=S)P(=O)(OC)OC | - | BCBL-1 | >200 µM
Nc1ncnc2c1ncn2[C@@H]1C=C(CO)[C@@H](O)[C@H]1O | - | P4 | 30 µM
COc1c2c(c3c(c1C(=O)c1cccc(O)c1)OC(C)(C)C=C3)OC(C)(C)C=C2 | XTT / absorbance | 1A2 | >392 µM
C[C@H]1O[C@@H](O[C@H]2CC[C@@]3(C)[C@H](CC[C@@H]4[C@@H]3CC[C@]3(C)[C@@H](C5=CC(=O)OC5)CC[C@]43O)C2)C[C@H](O)[C@@H]1O | MTT | GMK AH1 | >250 µM
COc1cc2c3cc1Oc1c4c(cc5c1[C@H](Cc1ccc(cc1)Oc1cc(ccc1OCCOCc1ccccc1)C[C@H]3N(C)CC2)N(C)CC5)OCO4 | MTT | U1 | 0.68 µg/mL
Nc1nc(F)nc2c1ncn2/C=C1/CC1CO | - | DAUDI | >50 µM
CC(=O)[C@]1(O)CC[C@@]2(O)[C@]1(C)[C@H](OC(=O)/C=C(\C)C(C)C)CC1[C@@]3(C)CC[C@H](O)CC3=CC[C@]12O | MTT | 2.2.15 | 225 µM
Nc1ccn([C@@H]2C[C@@H](O)[C@H](CO)O2)c(=O)n1 | - | MA-104 | >100 µM
C[C@H]1O[C@@H](O[C@H]2[C@@H](O)C[C@H](O[C@H]3[C@@H](O)C[C@H](O[C@H]4CC[C@@]5(C)[C@H](CC[C@@H]6[C@@H]5CC[C@]5(C)[C@@H](C7=CC(=O)OC7)CC[C@]65O)C4)O[C@@H]3C)O[C@@H]2C)C[C@H](O)[C@@H]1O | MTT | GMK AH1 | >25 µM
C[C@H]1[C@@H](O)[C@@H](O)[C@H](O)CN1C | - | Karpas 45 cells | >100 µg/mL
CC(C)CCn1c(=O)/c(=C2\Nc3ccc(NS(C)(=O)=O)cc3S(=O)(=O)N2)c(=O)c2cccn21 | - | HCV Huh-7/C24 | >1 µM
Cc1cn([C@@H]2C[C@@H](O)[C@H](CO)O2)c(=O)[nH]c1=O | - | CV-1 | >100 µM
Nc1ncnc2c1ncn2[C@@H]1O[C@H](CO)C[C@@H]1O | - | U87MG | 50 µg/mL
[O-]P([O-])(=S)C(=S)[S-] | - | BCBL-1 | >200 µM
CC(C)CCCc1ccc2c(c1)C(=O)C=C(N1CCCC1)C2=O | MTT | Human fibroblast 2C4 | 1610 µM
Cc1c(N)nc([C@H](CC(N)=O)NC[C@H](N)C(N)=O)nc1C(=O)N[C@H](C(=O)N[C@H](C)[C@@H](O)[C@H](C)C(=O)N[C@H](C(=O)NCCc1nc(-c2nc(C(=O)NCCC[S+](C)C)cs2)cs1)[C@@H](C)O)C(O[C@@H]1O[C@@H](CO)[C@@H](O)[C@H](O)[C@@H]1O[C@H]1O[C@H](CO)[C@@H](O)[C@H](OC(N)=O)[C@@H]1O)c1cnc[nH]1 | - | PBLC | >0.3 µg/mL
Nc1nc2c(ncn2COC(CO)CO)c(=O)[nH]1 | MTT | CBMC | 159 µM
O=C([S-])P([O-])([O-])=S | - | BCBL-1 | >200 µM
COC1=CC23CCCN2CCc2cc4c(cc2C3C1O)OCO4 | - | HepG2 2.2.15 | >100 µM
C#CCCC[C@@H]1OC(=O)CNC(=O)[C@H]([C@@H](C)CC)NC(=O)[C@@H]2CCCN2C(=O)[C@H](C(C)C)OC(=O)[C@H](Cc2ccccc2)N(C)C(=O)[C@H](C(C)C)NC(=O)C1(C)C | MTT | HT-29 | 75 µM
CC(=O)N1C[C@@H](O)[C@H](O)[C@H](O)[C@@H]1C | - | Karpas 45 cells | >300 µg/mL
Nc1ccn(C[C@@H](CO)OCP(=O)(O)O)c(=O)n1 | MTT | HSB-2 | 42 µM
Cc1cccc2c1N=C(c1ccccc1)C2CN1CCC(NS(C)(=O)=O)C1 | - | THP-1 | >64 µM
OC[C@@H](O)[C@@H]1NC[C@@H](O)[C@H]1O | - | Karpas 45 cells | >160 µg/mL
Nc1nc(=O)c2ncn([C@H]3O[C@@H](CO)[C@H](O)[C@@H]3O)c2c(=O)[nH]1 | - | 2.2.15 | 2400 µM
Cc1cn([C@@H]2C[C@@H](O)[C@H](CO)O2)c(=O)[nH]c1=O | - | CV-1 | >100 µM
OC[C@H]1N[C@H](CO)[C@@H](O)[C@@H]1O | - | Karpas 45 cells | >320 µg/mL
Nc1nc2c(ncn2CCOCP(=O)(O)O)c(=O)[nH]1 | MTT | HSB-2 | 1.7 µM
C[C@H]1O[C@@H](O[C@H]2CC[C@@]3(C)[C@H](CC[C@@H]4[C@@H]3CC[C@]3(C)[C@@H](C5=CC(=O)OC5)CC[C@]43O)C2)C[C@H](O)[C@@H]1O[C@@H]1O[C@H](CO)[C@@H](O)[C@H](O)[C@H]1O | MTT | GMK AH1 | >250 µM
O=c1[nH]c(=O)n([C@H]2C[C@H](O)[C@@H](CO)O2)cc1/C=C/Br | MTT | CBMC | 228 µM
Nc1ncnc2c1ncn2[C@@H]1C[C@@H](O)[C@H](CO)O1 | - | MA-104 | >100 µM
Nc1nc2c(ncn2COCCO)c(=O)[nH]1 | - | BCC-1/KMC | 126.8 µg/mL
Cc1cn([C@H]2C[C@H](N=[N+]=[N-])[C@@H](CO)O2)c(=O)[nH]c1=O | MTT | MOLT-4/8 | 63.3 µM
COc1c2c(c3c(c1C(=O)c1ccccc1)OC(C)(C)C=C3)OC(C)(C)C=C2 | XTT / absorbance | 1A2 | 29.59 µM
NC(=O)C(c1ccccc1)(c1ccccc1)[C@H]1CCCN(CCc2ccc3c(c2)CCO3)C1 | - | PM1 | 47 µM
Nc1nc(Cl)nc2c1ncn2/C=C1/CC1CO | - | H-1 | 1.4 µM

For reference, 11 entries again:

compound	method	cells	result
C#CCCC[C@@H]1OC(=O)CNC(=O)[C@H]([C@@H](C)CC)NC(=O)[C@@H]2CCCN2C(=O)[C@H](C(C)C)OC(=O)[C@H](Cc2ccccc2)N(C)C(=O)[C@H](C(C)C)NC(=O)C1(C)C	MTT	HT-29	75 µM
Nc1nc2c(ncn2COC(CO)CO)c(=O)[nH]1	MTT	CBMC	159 µM
Cc1cccc2c1N=C(c1ccccc1)C2CN1CCC(NS(C)(=O)=O)C1	-	THP-1	>64 µM
Cc1cn([C@@H]2C[C@@H](O)[C@H](CO)O2)c(=O)[nH]c1=O	-	CV-1	>100 µM
CCOC(=O)C1CCN(C(=O)C(=O)Nc2ccc3c(c2)OCO3)CC1	WST	PM1	>200 µM
COc1cc2c3cc1Oc1c4c(cc5c1[C@H](Cc1ccc(cc1)Oc1cc(ccc1OCCOCc1ccccc1)C[C@H]3N(C)CC2)N(C)CC5)OCO4	MTT	U1	0.68 µg/mL
COc1c2c(c3c(c1C(=O)c1cccc(O)c1)OC(C)(C)C=C3)OC(C)(C)C=C2	XTT / absorbance	1A2	>392 µM
Cc1cn([C@H]2C[C@H](N=[N+]=[N-])[C@@H](CO)O2)c(=O)[nH]c1=O	MTT	MOLT-4/8	63.3 µM
C[C@H]1OC(O[C@H]2[C@@H](O)C[C@H](O[C@@]3(C)[C@@H](O)C[C@H](O[C@H]4CC[C@@]5(C)[C@H](CC[C@@H]6[C@@H]5C[C@@H](O)[C@]5(C)[C@@H](C7=CC(=O)OC7)CC[C@]65O)C4)O[C@@H]3C)O[C@@H]2C)C[C@H](O)[C@@H]1O	MTT	GMK AH1	>25 µM
Cc1ccc(NC(=O)NC2CCCCCCC2)cc1Cl	MTT	CCL-81	>400 µg/mL
Nc1ncnc2c1ncn2[C@@H]1O[C@H](CO)[C@@H](O)[C@@H]1O	MTT	HSB-2	3.2 µM